Measurements as given in the CheMixHub ionic liquid set.

Experiment: xn = mol fraction of the nth substance listed

CCC[N+]1(C)CCCCC1.O=S(=O)([N-]S(=O)(=O)C(F)(F)F)C(F)(F)F + CCC[N+]1(C)CCCCC1.O=S(=O)(F)[N-]S(=O)(=O)F
101.3 kPa, x1 = 1
Details	viscosity [mPa·s]
283.15 K	397 ± 80
288.15 K	277 ± 56
353.15 K	17.3 ± 3.5

CC[N+]1(C)CCCC1.O=S(=O)(F)[N-]S(=O)(=O)F + O=S(=O)(F)[N-]S(=O)(=O)F.[Na+]
101 kPa
Details	electrical conductivity [S/m]	viscosity [mPa·s]
293 K, x2 = 0.3	0.138 ± 0.006	–
293 K, x2 = 0.4	0.07 ± 0.003	–
313 K, x2 = 0.3	0.355 ± 0.014	97.2 ± 8.4
323 K, x2 = 0.7	0.05 ± 0.002	1040 ± 320
333 K, x2 = 0.3	0.679 ± 0.027	46.9 ± 3
343 K, x2 = 0.3	0.891 ± 0.036	34.5 ± 2.2
343 K, x2 = 0.5	0.451 ± 0.018	102 ± 9
353 K, x2 = 0.4	0.832 ± 0.034	43.1 ± 2.8
363 K, x2 = 0.3	1.4 ± 0.06	20.5 ± 1.3
363 K, x2 = 0.4	1.09 ± 0.04	33.3 ± 2.1
373 K, x2 = 0.4	1.37 ± 0.06	26.4 ± 1.7
373 K, x2 = 0.6	0.739 ± 0.03	55.6 ± 3.4
403 K, x2 = 0.5	2.11 ± 0.08	19.4 ± 1.2

CCC[N+]1(C)CCCCC1.O=S(=O)(F)[N-]S(=O)(=O)F + CCC[N+]1(C)CCCCC1.O=S(=O)([N-]S(=O)(=O)C(F)(F)F)C(F)(F)F
101.3 kPa
Details	viscosity [mPa·s]
288.15 K, x2 = 0	74 ± 15
288.15 K, x2 = 0.6	129 ± 26
293.15 K, x2 = 0.6	101 ± 20
298.15 K, x2 = 0.8	104 ± 21
308.15 K, x2 = 0.2	40.6 ± 8.1
308.15 K, x2 = 0.4	47.3 ± 9.5
313.15 K, x2 = 0.6	43.9 ± 8.8
343.15 K, x2 = 0.2	15.7 ± 3.1

CCC[N+]1(C)CCCC1.N#C[N-]C#N + O=S(=O)(F)[N-]S(=O)(=O)F.[Na+]
101.3 kPa, frequency 3 MHz, x1 = 0.19
Details	electrical conductivity [S/m]
252.85 K	0.16 ± 0.4
302.55 K	1.44 ± 0.4
342.65 K	3.42 ± 0.4

Details	viscosity [mPa·s]
293.15 K, 101.3 kPa, x1 = 0.19	42 ± 4

CCC[N+]1(C)CCCCC1.O=S(=O)(F)[N-]S(=O)(=O)F + CCCC[N+]1(C)CCCC1.O=S(=O)(F)[N-]S(=O)(=O)F
101.3 kPa
Details	viscosity [mPa·s]
288.15 K, x1 = 0.6	83 ± 17
293.15 K, x1 = 0.2	93 ± 19
293.15 K, x1 = 0.6	68 ± 14
298.15 K, x1 = 0.6	56 ± 11
298.15 K, x1 = 0.8	55 ± 11
303.15 K, x1 = 0.2	62 ± 13
303.15 K, x1 = 0.4	50 ± 10
313.15 K, x1 = 1	31.8 ± 6.4
318.15 K, x1 = 0.6	29.6 ± 5.9
328.15 K, x1 = 0.4	23.4 ± 4.7
333.15 K, x1 = 0.8	19.8 ± 4
333.15 K, x1 = 1	18.9 ± 3.8
343.15 K, x1 = 0.2	19.1 ± 3.8
348.15 K, x1 = 1	13.7 ± 2.7

± gives the uncertainty stated by the source.
